# Test system: Carbendazim-resistant fusarium asiaticum
# Assay: DON toxin synthesis capability in GYEP liquid culture
# Assay type: cell-based
# Conditions: different doses of jinggangmycin; dry weight of hyphae vs blank control
smiles,measurement,value
OCC1=C[C@H](N[C@H]2C[C@H](CO)[C@@H](O[C@@H]3O[C@H](CO)[C@@H](O)[C@H](O)[C@H]3O)[C@H](O)[C@H]2O)[C@H](O)[C@@H](O)[C@@H]1O [Jinggangmycin],inhibitory effect on the growth of the fusarium head blight fungi cultured in liquid,does not have the inhibitory effect on the growth
